Results of unrelated studies side by side (data: NIAID ChemDB).

Common to all: growth or infection tests; organism: Herpes simplex virus 1; endpoint: EC50

Neighbouring rows are from separate reports. ECn is the concentration giving n% inhibition of infection, replication or growth. Blank or dashed fields: not listed here.

smiles	read by	strain	cell line	result
COc1ccc2c(c1OC)C(=O)O[C@@H]2[C@H]1c2cc3c(cc2CCN1C)OCO3	cytopathic effect	KOS	HeLa	>400 µg/mL
CC(C)C(=O)O[C@H]1C[C@H](n2cc(/C=C/Br)c(=O)[nH]c2=O)O[C@@H]1COP1(=O)OCc2ccccc2O1	plaque count	B2006 (TK-)	VERO	>128 µg/mL
C[C@]1(CO)C2CCC3CC4CC3(CC[C@]4(O)CO)[C@@]2(C)CC[C@H]1O	plaque count		VERO	>500 µM
CCCCC[C@H](O)/C=C/[C@H]1C=CC(=O)[C@@H]1CCCCCCC(=O)O	cytopathic effect	KOS	HeLa	>4 µg/mL
C[C@@]12COCO[C@@H]1CC[C@@]1(C)[C@H]2CC[C@H]2C[C@@H]3CC21CCC3=O	plaque count		VERO	>500 µM
OC[C@H]1O[C@H](n2cnc3cc(Cl)c(Cl)cc32)[C@@H](O)[C@H]1O	cytopathic effect	KOS	E6SM	>200 µg/mL
C[C@]12CCC3OC[C@@]3(C)[C@@H]1CC[C@H]1C[C@@H]3CC12CCC3=O	plaque count		VERO	>500 µM
Nc1nc2c(ncn2CCC(CO)CO)c(=O)[nH]1	cytopathic effect	KOS PMEA-resistant	HEL	0.14 µg/mL
CCC(=O)O[C@H]1C[C@H](n2cc(/C=C/Br)c(=O)[nH]c2=O)O[C@@H]1COP1(=O)OCc2cccc(C)c2O1	plaque count	B2006 (TK-)	VERO	>64 µg/mL
CC(=O)O[C@H]1CC[C@@]2(C)C(=CC[C@@H]3[C@@H]2CC[C@@]2(C)[C@H]3CCC23OCCO3)C1	virus yield		VERO	481 µM
COC(=O)P(=O)(O)OC[C@H]1O[C@@H](n2cc(CCCl)c(=O)[nH]c2=O)C[C@@H]1O	cytopathic effect	BRAND	VERO	>24.2 µM
C[C@]12CC[C@H](O)CC1=CCC1C2CC[C@]2(C)C(=O)[C@H](Br)CC12	virus yield		VERO	19.1 µM
O=C(O)P(=O)(O)O	cytopathic effect	KOS	U373-MG	58 µg/mL
Nc1ncnc2c1ncn2C[C@@H](CO)OCP(=O)(O)O	cytopathic effect	KOS BVDU-resistant	HEL	0.048 µg/mL
Nc1ncnc2c1ncn2C[C@H]1COP(=O)(O)CO1		TK-	Primary rabbit kidney cells	2 µg/mL
Nc1ccn(C[C@@H](CO)OCP(=O)(O)O)c(=O)n1	cytopathic effect	KOS	VERO	6.7 µg/mL
O=c1[nH]cnc2[nH]ncc12	cytopathic effect	KOS	HeLa	>200 µg/mL
Nc1ncc2c(ncn2COC(CO)CO)n1	cytopathic effect	KOS GCV-resistant	HEL	0.48 µg/mL
CC(=O)O[C@H]1CC[C@]2(C)C3CC[C@@]4(C)C(C[C@@H](Br)C45OCCO5)C3CC[C@H]2C1	virus yield		VERO	42.4 µM
CO[C@H]1[C@@H](O)[C@@H](C)O[C@H](O[C@H]2[C@H](Oc3cccc4c(O)c5c(=O)oc6ccc(C)c7c(=O)oc(c34)c5c67)O[C@H](C)[C@H](O)[C@@H]2O)[C@@H]1O	cytopathic effect	KOS	HeLa	>200 µg/mL
Nc1nc2c(ncn2CC(CO)OCP(=O)(O)O)c(=O)[nH]1		TK-	Primary rabbit kidney cells	7 µg/mL
Cc1ccc(S(=O)(=O)OC[C@@]2(O)CCC34C[C@H]2C[C@@H]3CC[C@H]2[C@](C)(CO)[C@H](O)CC[C@@]24C)cc1	plaque count			0.7 µM
O=c1[nH]cnc2c1ncn2C[C@@H](CO)OCP(=O)(O)O			Primary rabbit kidney cells	>400 µg/mL
OC[C@@H](O)C(O)[C@@H](O)CO	cytopathic effect	KOS	HeLa	>200 µg/mL
Cc1cccc2c1OP(=O)(OC[C@H]1O[C@@H](n3cc(/C=C/Br)c(=O)[nH]c3=O)C[C@@H]1OC(=O)[C@@H](N)Cc1ccccc1)OC2	plaque count	B2006 (TK-)	VERO	>128 µg/mL
OCCOC([C@H](O)CO)n1cnc2cc(Cl)c(Cl)cc21	cytopathic effect	KOS	E6SM	>400 µg/mL
Cc1cn([C@@H]2O[C@H](CO)[C@@H](O)[C@@H]2O)c(=O)[nH]c1=O	cytopathic effect	KOS S2242-resistant	HEL	0.42 µg/mL
Nc1nc2c(ncn2C[C@H]2CC[C@@H](CO)C2)c(=O)[nH]1	cytopathic effect	VMW1837 (TK-)	E6SM	>400 µg/mL
CCn1cc(C(=O)O)c(=O)c2cnc(N3CCNCC3)nc21	cytopathic effect	KOS	HeLa	>200 µg/mL
O=c1[nH]c(=O)n([C@H]2C[C@H](O)[C@@H](CO)O2)cc1/C=C/Br	plaque count		HELA TK-	<0.03 µM
NC(=O)/C=C/C1=NCCC1	cytopathic effect	KOS	HeLa	>200 µg/mL
COc1cc(C2c3c(cc4c(c3OC)OCO4)C[C@H]3COC(=O)[C@H]23)cc(OC)c1OC		ITOH	MRC-5	0.056 µg/mL
O=c1[nH]c(=O)n([C@@H]2C[C@@H](O)[C@H](CO)O2)cc1/C=C/Br	plaque count		U373-MG	1 µM
Nc1nccc2c1ncn2[C@@H]1C[C@H](CO)[C@@H](O)[C@H]1O	cytopathic effect	KOS F McIntyre	PRK	≥200 µg/mL
Cc1cn(C[C@@H](CO)OCP(=O)(O)O)c(=O)[nH]c1=O		TK-	Primary rabbit kidney cells	>400 µg/mL
CC(=O)O[C@H]1CC[C@]2(C)C3CC[C@]4(C)C(=O)CCC4C3CC[C@H]2C1	virus yield		VERO	292 µM
CCCCCC(=O)O[C@H]1C[C@H](n2cc(/C=C/Br)c(=O)[nH]c2=O)O[C@@H]1COP1(=O)OCc2cccc(C)c2O1	plaque count	B2006 (TK-)	VERO	>128 µg/mL
O=C(O)P(=O)(O)O	cytopathic effect	KOS ACV-resistant	HEL	29.5 µg/mL
O=C(O)CP(=O)(O)O	plaque count	11-Aug	SIRC	<500 µM
Nc1nc2c(ncn2COCCO)c(=O)[nH]1	plaque count	Clinical isolate	VERO	0.42 µM
COc1ccc2c(c1)COP(=O)(OC[C@H]1O[C@@H](n3cc(/C=C/Br)c(=O)[nH]c3=O)C[C@@H]1O)O2	plaque count	B2006 (TK-)	VERO	>128 µg/mL
O=C(O)P(=O)(O)O	plaque count	90155	SIRC	<100 µM
CC(=O)O[C@H]1CC[C@@]2(C)C(=CC[C@@H]3[C@@H]2CC[C@]2(C)C(=O)[C@@H](OC(C)=O)C[C@@H]32)C1	virus yield		VERO	489 µM
Nc1nc(N)c2ncn(C[C@H]3CC[C@@H](CO)C3)c2n1	cytopathic effect	B2006 (TK-)	E6SM	>400 µg/mL
O=c1[nH]c(=O)n([C@H]2C[C@H](O)[C@@H](CO)O2)c[c]1[Hg+].O=c1cc[nH]c(=S)[nH]1	virus yield	KOS	KB	0.04 µg/mL
OCCOC(CO)n1cnc2cc(Cl)c(Cl)cc21	cytopathic effect	KOS	E6SM	>200 µg/mL
Nc1nc2c(ncn2COCCO)c(=O)[nH]1	virus yield		VERO	0.311 µM
OC[C@H]1O[C@@](CO)(O[C@H]2O[C@H](CO)[C@@H](O)[C@H](O)[C@H]2O)[C@@H](O[C@H]2O[C@H](CO)[C@@H](O)[C@H](O)[C@H]2O)[C@@H]1O	cytopathic effect	KOS	HeLa	>200 µg/mL
COc1cc([C@@H]2c3cc4c(cc3[C@H](O)[C@H]3COC(=O)[C@H]23)OCO4)cc(OC)c1OC		INOUE	MRC-5	0.01 µg/mL
Cc1cccc2c1OP(=O)(OC[C@H]1O[C@@H](n3cc(/C=C/Br)c(=O)[nH]c3=O)C[C@@H]1OC(=O)[C@H](N)C(C)C)OC2	plaque count	B2006 (TK-)	VERO	>128 µg/mL
Nc1nc(Cl)c2ncn(C[C@H]3CC[C@@H](CO)C3)c2n1	cytopathic effect	B2006 (TK-)	E6SM	>1 µg/mL
CC1(C)CCC[C@@]2(C)[C@H]1CC[C@H]1C[C@@H]3CC12CC[C@]3(O)CO	plaque count		VERO	>500 µM
Nc1ccn(C[C@@H](CO)OCP(=O)(O)O)c(=O)n1	cytopathic effect	KOS PMEDAP-resistant	HEL	0.34 µg/mL
CC(C)[Si]1(C(C)C)OC[C@H]2O[C@@H](n3cnc4cc(Cl)c(Cl)cc43)[C@@H](O)[C@H]2O[Si](C(C)C)(C(C)C)O1	cytopathic effect	KOS	E6SM	>100 µg/mL
Nc1nc2c(ncn2COCCO)c(=O)[nH]1	plaque count		HeLa	0.1 µM
O=c1[nH]c(=O)n([C@H]2C[C@H](O)[C@@H](CO)O2)c[c]1[Hg+].OCC[S-]	virus yield	KOS	KB	0.003 µg/mL
Nc1ncnc2c1ncn2C[C@@H](CO)OCP(=O)(O)O		TK-	Primary rabbit kidney cells	0.7 µg/mL
O=C(O)CP(=O)(O)OC[C@H]1O[C@@H](n2cc(CCCl)c(=O)[nH]c2=O)C[C@@H]1O	cytopathic effect	BRAND	VERO	>2.3 µM
Nc1nc(N)c2ncn(CCOCP(=O)(O)O)c2n1		TK-	Primary rabbit kidney cells	1 µg/mL
Cc1cccc2c1OP(=O)(OC[C@H]1O[C@@H](n3cc(/C=C/Br)c(=O)[nH]c3=O)C[C@@H]1OC(=O)[C@H](N)Cc1ccccc1)OC2	plaque count	KUPKA (TK+)	VERO	1.09 µg/mL
O=c1[nH]c(=O)n([C@H]2C[C@H](O)[C@@H](CO)O2)cc1CCCl	cytopathic effect	BRAND	VERO	>0.03 µM
C[C@@]1(CO)[C@H](O)CC[C@@]2(C)[C@H]1CC[C@H]1C[C@@H]3CC12CC=C3CO	plaque count			>500 µM
O=c1[nH]c(=O)n([C@H]2C[C@H](O)[C@@H](COP3(=O)OCc4cc(-c5ccccc5)ccc4O3)O2)cc1/C=C/Br	plaque count	B2006 (TK-)	VERO	>128 µg/mL
O=c1[nH]c(=O)n([C@H]2C[C@H](O)[C@@H](CO)O2)c[c]1[Hg+]	virus yield	KOS	KB	0.59 µg/mL
COP(=O)(CC(=O)OC[C@H]1O[C@@H](n2cc(I)c(=O)[nH]c2=O)C[C@@H]1O)OC	cytopathic effect	BRAND	VERO	>0.6 µM
Nc1nc2c(nnn2C[C@H]2CC[C@@H](CO)C2)c(=O)[nH]1	cytopathic effect	B2006 (TK-)	E6SM	>200 µg/mL
CC(C)[C@@H](C)/C=C/[C@@H](C)[C@H]1CC[C@H]2C3=CC=C4C[C@@H](O)CC[C@]4(C)[C@H]3CC[C@]12C	cytopathic effect	KOS	HeLa	>200 µg/mL
COc1cc(C2c3cc4c(cc3C[C@H]3COC(=O)[C@H]23)OCO4)cc(OC)c1OC		INOUE	MRC-5	0.006 µg/mL
O=c1[nH]c(=O)n([C@H]2C[C@H](O)[C@@H](COP3(=O)OCc4cc(Cl)ccc4O3)O2)cc1/C=C/Br	plaque count	B2006 (TK-)	VERO	>128 µg/mL
C/C=C1/CCC23C[C@H]1C[C@@H]2CC[C@H]1[C@]2(C)COC(C)(C)O[C@@H]2CC[C@@]13C	plaque count		VERO	>500 µM

Again, the opening 7 rows:

{"smiles": "COc1ccc2c(c1OC)C(=O)O[C@@H]2[C@H]1c2cc3c(cc2CCN1C)OCO3", "read by": "cytopathic effect", "strain": "KOS", "cell line": "HeLa", "result": ">400 µg/mL"}
{"smiles": "CC(C)C(=O)O[C@H]1C[C@H](n2cc(/C=C/Br)c(=O)[nH]c2=O)O[C@@H]1COP1(=O)OCc2ccccc2O1", "read by": "plaque count", "strain": "B2006 (TK-)", "cell line": "VERO", "result": ">128 µg/mL"}
{"smiles": "C[C@]1(CO)C2CCC3CC4CC3(CC[C@]4(O)CO)[C@@]2(C)CC[C@H]1O", "read by": "plaque count", "cell line": "VERO", "result": ">500 µM"}
{"smiles": "CCCCC[C@H](O)/C=C/[C@H]1C=CC(=O)[C@@H]1CCCCCCC(=O)O", "read by": "cytopathic effect", "strain": "KOS", "cell line": "HeLa", "result": ">4 µg/mL"}
{"smiles": "C[C@@]12COCO[C@@H]1CC[C@@]1(C)[C@H]2CC[C@H]2C[C@@H]3CC21CCC3=O", "read by": "plaque count", "cell line": "VERO", "result": ">500 µM"}
{"smiles": "OC[C@H]1O[C@H](n2cnc3cc(Cl)c(Cl)cc32)[C@@H](O)[C@H]1O", "read by": "cytopathic effect", "strain": "KOS", "cell line": "E6SM", "result": ">200 µg/mL"}
{"smiles": "C[C@]12CCC3OC[C@@]3(C)[C@@H]1CC[C@H]1C[C@@H]3CC12CCC3=O", "read by": "plaque count", "cell line": "VERO", "result": ">500 µM"}